Source: publication PMC5879082, “PutA Is Required for Virulence and Regulated by PruR in Pseudomonas aeruginosa”
For at least one entry, the source does not settle the construct or the ends of the probe. Where a protein sequence is shown, tags need not be part of it.

Target: T1, rPruR (AraC/XylS family regulator) (Pseudomonas aeruginosa PAK) (UniProt Q9I5F8)
T1 sequence (looked up, limits assumed): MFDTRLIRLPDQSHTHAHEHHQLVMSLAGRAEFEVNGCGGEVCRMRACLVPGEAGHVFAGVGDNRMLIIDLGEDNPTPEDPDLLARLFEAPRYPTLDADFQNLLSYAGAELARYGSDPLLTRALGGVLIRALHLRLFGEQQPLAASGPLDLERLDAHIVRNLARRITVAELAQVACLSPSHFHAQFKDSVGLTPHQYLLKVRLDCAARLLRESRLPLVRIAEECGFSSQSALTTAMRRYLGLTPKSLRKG
Test: EMSA
Details: 50 mM Tris pH 7.9, 50 mM NaCl, 0.5 mM EDTA, 10% glycerol, 1% NP-40, 25 C, 10 min; 50 ng DNA, 2 ug rPruR in 20 ul; 8% native PAGE in TBE on ice (EMSA); recombinant protein; protein details: His tag (pET-28a(+)); probe letters rebuilt from the primers and the genome

Sequence | binding result
ATCGGCGTATTTATTGGGATGTTATATTATTTCTTTTTGTGTCGGTAGACCCGCGTAGCCACTCTGCATGGCGTCGTGCCGACGTGCAGCGGCAATGTCCGCATGCCTGCCGGCGAAGAGGAACGGGAAAGTTCCGCAGCCAGGAGTTTTCCGCAAAAACTCCAGAGTCTTTCGCAAGAATCGCCCCTCTCGCAGCCACTACATTCCGCTATCCGCTGGTGCCTCGCGCCGGCGGAATGGGCCTGACCCATACTGATCCGTATTCCCGCGCCACAGGACGTGCCGCGCCGCCGGCACAACCCGCCGGCGGCGGTGCCCCGGGCAATGGACGCCTGGCCGGACTTCTTTCAATAACAATGGCTCCACAAGAGGAGGGCGTG (double strand) [putA promoter F2] | binds
CACGCCCTCCTCTTGTGGAGCCATTGTTATTGAAAGAAGTCCGGCCAGGCGTCCATTGCCCGGGGCACCGCCGCCGGCGGGTTGTGCCGGCGGCGCGGCACGTCCTGTGGCGCGGGAATACGGATCAGTATGGGTCAGGCCCATTCCGCCGGCGCGAGGCACCAGCGGATAGCGGAATGTAGTGGCTGCGAGAGGGGCGATTCTTGCGAAAGACTCTGGAGTTTTTGCGGAAAACTCCTGGCTGCGGAACTTTCCCGTTCCTCTTCGCCGGCAGGCATGCGGACATTGCCGCTGCACGTCGGCACGACGCCATGCAGAGTGGCTACGCGGGTCTACCGACACAAAAAGAAATAATATAACATCCCAATAAATACGCCGATCCGACCCCGTCGCCCTTCCTCCGGGAAGGGCCTGGGTTCGCTTTGGCCTGAAAAAAGTCCGACCCATGACCATGGAGCCCGCAATGTCCTCTTCCGGCCTTTTCCCTTCCCGTCCGCTCTGGCCTCTCACGCCACTGGCGCTGGCCTGCCTGATTGTTTCGGGGGAA (double strand) [putA promoter F1] | binds
